Assay results: patent US6727076B2 (priority 1995, dated 2004)

Tests used:
Test in all cases: Carbon source utilization in Biolog ES MicroPlate
Format in all cases: cell-based
Conditions in all cases: PPS inoculum, 35° C., 24 hours
[1] = test system: E. coli strain 13671 (O157:H? gur+)
[2] = test system: E. coli strain 13673 (O157)
[3] = test system: E. coli strain 13675 (O157)
[4] = test system: E. coli strain 11547 (O157:H7)

With Acetoactetic acid the carbon source utilization [1] was “−”, the carbon source utilization [2] was “−” and the carbon source utilization [3] was “−”. For the same substance, the carbon source utilization [4] was “−”.
M-inositol was tested, and the carbon source utilization [1] was “−”, the carbon source utilization [2] was “−” and the carbon source utilization [3] was “−”. The carbon source utilization [4] was “−”.
For M-tartaric acid, the carbon source utilization [1] was “+”, the carbon source utilization [2] was “−” and the carbon source utilization [3] was “−”. For the same substance, the carbon source utilization [4] was “w”.
Tween-40 was tested, and the carbon source utilization [1] was “w”, the carbon source utilization [2] was “w” and the carbon source utilization [3] was “w”. For the same substance, the carbon source utilization [4] was “w”.
With α-hydroxy-glutaric acid γ-lactone the carbon source utilization [1] was “−”, the carbon source utilization [2] was “−” and the carbon source utilization [3] was “w”. For the same substance, the carbon source utilization [4] was “w”.
